Reference: paper PMC11981937 (Nature, 2025)

Molecular target: M protein (Severe acute respiratory syndrome coronavirus 2, UniProt P0DTC5)
Experiment: Photo affinity labeling target deconvolution
Settings: concluded from experiments with an analogue

With C[C@H]1Cn2ncc(C(=O)Nc3cccc(C#N)c3)c2C(=O)N1c1ccc(C(F)(F)c2ccccc2)cc1 [JNJ-9676, (S)-N-(3-cyanophenyl)-5-(4-(difluoro(phenyl)methyl)phenyl)-6-methyl-4-oxo-4,5,6,7-tetrahydropyrazolo[1,5-a]pyrazine-3-carboxamide] the “target selectivity (in words)” value was “selective for M protein”.
